Measurements from patent publication US4649911A, “Small particle aerosol generator for treatment of respiratory disease including the lungs” (Baylor College of Medicine, priority 1986, dated 1987).

Conditions: human, in vivo

Structure (SMILES): NC(=O)c1ncn([C@@H]2O[C@H](CO)[C@@H](O)[C@H]2O)n1 [ribavirin]
- clinical tolerance: nausea and vomited several times
